Experimental data published in patent US7884097B2, “Methods and compositions comprising diamines as new anti-tubercular therapeutics” (Sequella, Inc., priority 2003, dated 2011).

tested on: Vero monkey kidney cells; assay: In vitro toxicity, MTS assay in Vero cells; format: cell-based; conditions: not given
Protocol: Cytotoxicity The Vero cell line (ATCC CCL-8 1) was seeded overnight at 5×10^4 cells per well in 96-well plates at 37° C. and 5% CO2 in EMEM with essential amino acids and glutamine (BioFluids) supplemented with 10% heat-inactivated fetal bovine serum (FBS). Cells were exposed to dilutions of experimental and control drugs in triplicate for 72 hr, with each compound at a range of concentrations from 15-200 μM. Chlorpromazine (Sigma) was run as a control at the same concentrations. CellTiter 96 AQueous Assay (Promega) was used for determination of Vero cell viability. Briefly, a solution of MTS salt (3-(4,5-dimethylthiazol-2-yl)-5-(3-carboxymethoxyphenyl)-2-(4-sulfophenyl)-2H-tetrazolium) and phenazine methosulfate was added to each well and plates were incubated for 2 hr at 37° C. and 5% CO2. Absorbance of each well was read using BioRad microplate reader at 490 nm. Viability (absorbance) of cells in drug-exposed wells was compared to those in drug-free control wells, and a curve relating cell viability to drug concentration was created.

SMILES	SI (selectivity index, ratio of IC50:MIC)
Fc1ccccc1N1CCN(C2CCC3CCCCC3C2)CC1 (stereo not drawn) [#765, N-(2-Fluorophenyl)-N′-(2-decalone)piperazine]	11.2
c1ccc(CN2CCN(C3CCC4CCCCC4C3)CC2)cc1 (stereo not drawn) [#787, N-Benzyl-N′-2-Decalonepiperazine]	5.6

tested on: HepG2 cell line; assay: In vitro cytotoxicity, MTS assay in HepG2 cell line; format: cell-based; conditions: ratio IC50 to MIC

SMILES	SI IC50:MIC
C1CCCC(N2CCCN(C3CCCCCCC3)CC2)CCC1 [SQ777]	9.49
C1CCC2CC(N3CCCN(C4CCC5CCCCC5C4)CC3)CCC2C1 (stereo not drawn) [SQ778, N,N′-Bis(2-Decalone)homopiperazine]	6.92
C=C(C)[C@@H]1CC=C(CN2CCCN(CC3=CC[C@@H](C(=C)C)CC3)CC2)CC1 [SQ781]	low SI values
c1ccc(COc2ccc(CN3CCN(Cc4ccccc4)CC3)cc2)cc1 [SQ786, N -benzyl-N′-(4-benzyloxy)benzylpiperazine]	17.25
